According to ChEMBL document CHEMBL3228013 (J Med Chem, 1979):
Activity calls are given as the source filed them. The calls are words filed in the database; no cut-off is given here.

Legend:
KB = assay: Cytotoxicity against human KB cells; assay type: functional, cell-based
L1210 = assay: Antitumor activity against mouse L1210 cells allografted in mouse at 500 mg/kg, ip began on day 1 halved compound dose ended at […], ip measured on day 30; assay type: functional, organism-based
Summary of the method: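 Female or male mice bearing L1210 lymphoid leukemia were tested under the NCI standard protocol. Dosing was ip, day 1 only, in aqueous Tween-80, at halved doses starting at 500 mg/kg and generally ending at 62.5 mg/kg. Mean survival time was assessed on day 30, and T/C ≥125% was taken as active.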

Compound	Activity (KB)	Activity (L1210)
NP(=O)(Oc1ccc([N+](=O)[O-])cc1)N(CCCl)CCCl (centres undefined)	inactive	inactive
Cc1ccc(NP(=O)(Cl)N(CCCl)CCCl)cc1 (centres undefined)	Active	inactive
